Reference: publication PMC9958325 (Nature Communications, 2023)
Several values for one entry are separate records, joined by “and”; a condition that tells them apart may be missing. Equal entries are not always repeated.

How the values were obtained:
SARS-CoV-2UW-5250^Delta = assay: Antiviral efficacy in hACE2 knock-in mice, Delta, lung virus titers; settings: UW-5250/Delat
[1] = system: SARS-CoV-2 Delta, BA.1 and BA.2 variants; assay: Antiviral efficacy in hACE2 knock-in mice, variants and days pooled (repeated ANOVA); settings: log-transformed titers; days and mutant strains fixed effects, individuals random effect; 95%CI
[2] = system: SARS-CoV-2NC928-2N^Omicron_BA.1; assay: Antiviral efficacy in hACE2 knock-in mice, Omicron BA.1, lung virus titers; settings: NC928-2N/Omicron_BA.1, sampling day3, group average of 5 mice
[3] = system: SARS-CoV-2NCD1288^Omicron_BA.2; assay: Antiviral efficacy in hACE2 knock-in mice, Omicron BA.2, lung virus titers

Structure (SMILES) | lung virus titer, ave of log pfu/g (SARS-CoV-2UW-5250^Delta; sampling day2, group average of 5 mice) [log pfu/g] | lung virus titer, ave of log pfu/g (SARS-CoV-2UW-5250^Delta; sampling day3, group average of 5 mice) [log pfu/g] | Virus titer compared to the no-drug control (repeated ANOVA) [1] | lung virus titer, ave of log pfu/g [2] [log pfu/g] | lung virus titer, ave of log pfu/g ([3]; NCD1288/Omicron_BA.2, sampling day2, group average of 5 mice) [log pfu/g] | lung virus titer, ave of log pfu/g ([3]; NCD1288/Omicron_BA.2, sampling day3, group average of 5 mice) [log pfu/g]
CC(C)(C)[C@H](NC(=O)C(F)(F)F)C(=O)N1C[C@H]2[C@@H]([C@H]1C(=O)N[C@@H](C[C@@H]1CCNC1=O)C(=O)c1nc3c(F)cccc3s1)C2(C)C [TKB245] | 6.24 | 6.888 | -1.34 and -1.34 (95%CI: -1.85, -0.82) | 3.547 | – | –
CC(C)(C)[C@H](NC(=O)C(F)(F)F)C(=O)N1C[C@H]2[C@@H]([C@H]1C(=S)N[C@@H](C[C@@H]1CCNC1=O)C(=O)c1nc3c(F)cccc3s1)C2(C)C [TKB248] | – | – | -1.01 and -1.01 (95%CI: -1.41, -0.60) | – | 5.5725 | 4.9348
